Test system: Aspergillus niger-ATCC 9642, Penicillium funiculosum-ATCC 11797, Chaetomium globosum-ATCC 6205, Trichoderma virens-ATCC 9645, Aureobasidium pullulans-ATCC 15233
Test: ASTM G21 strengthened (fungal growth on specimen, 28 days)
Assay type: cell-based, mold fungi (composite spore suspension)
Details: memory foam A1

Trisodium N-(1-carboxylato-ethyl) imidodiacetate
G21 (ASTM G21 strengthened rating) (0.2 pbw (B) with 0.5 pbw (C) dimethyltetradecyl(3-(trimethoxysilyl)propyl)ammonium chloride, (E) Diglyme 0.8 pbw): 3 (30 to 60% of the surface is covered with mold fungi) | G21 (ASTM G21 strengthened rating) (0.4 pbw (B) with 0.5 pbw (C) dimethyltetradecyl(3-(trimethoxysilyl)propyl)ammonium chloride, (E) Water 0.6 pbw): 4 (at least 60% of the surface is covered with mold fungi)
